From US20120294879A1, “CONSENSUS SEQUENCE FOR INFLUENZA A VIRUS” (priority 2009, published 2012) come the findings set out here.

Chains of the proteins cited; added tags and fusions are not shown.
UniProt Q8BHN5, whole entry, stated change not applied: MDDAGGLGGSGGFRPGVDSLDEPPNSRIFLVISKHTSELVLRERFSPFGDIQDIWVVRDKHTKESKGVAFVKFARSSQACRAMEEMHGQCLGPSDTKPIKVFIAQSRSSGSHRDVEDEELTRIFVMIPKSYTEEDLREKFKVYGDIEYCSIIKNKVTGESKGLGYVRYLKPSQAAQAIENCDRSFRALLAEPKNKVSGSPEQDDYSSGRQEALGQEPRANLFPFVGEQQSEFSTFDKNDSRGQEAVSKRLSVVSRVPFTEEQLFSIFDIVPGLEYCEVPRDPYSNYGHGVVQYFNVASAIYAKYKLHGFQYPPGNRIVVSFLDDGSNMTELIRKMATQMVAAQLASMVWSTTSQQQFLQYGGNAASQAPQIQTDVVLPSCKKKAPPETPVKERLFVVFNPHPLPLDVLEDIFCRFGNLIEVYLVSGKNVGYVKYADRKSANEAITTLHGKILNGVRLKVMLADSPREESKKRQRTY

For the test, the target named is HLA-DR2 (DRB1*1501), chimeric DRA1*0101:I-Eα and DRB1*1501:I-Eβ, as expressed in HLA-DR2 transgenic mice (human; mouse) (UniProt Q8BHN5). As to the kind of experiment: cell-based or functional assay.

“PB1 548-564 peptide of influenza virus A/New York/348/2003 (H1N1)” yielded an IFN-γ ELISpot at 10 µg/ml peptide, splenocytes of immunized HLA transgenic mice of 61 and a lowest concentration of peptide giving positive ELISpot response of 1 µg/mL.
